# From US20150086555A1 (THERACLONE SCIENCES, published 2015)
# B1: TCN-540 (5060_F05) (antibody, V domains shown)
# VH: QVQLVQSGGGVVQPGRSLRLSCAASGFTFSSYAMHWVRQAPGKGLEWVAIISYDGNDQYYTDSVKGRFTISRDSSKVYLQMHRLRPEDTAVYYCAKEFETSGYFHGSFDYWGQGILVTVSS
# VL: QSALTQPASVSGSPGQSITISCTGTSSDVGGYNYVSWYQQHPGKAPKLLIYEVTNWPSGVSNRFSGSKSGNTASLTISGLQAEDEADYYCSSYAGSSTWVFGGGTRVTVL
# B2: TCN-539 (5056_A08) (antibody, V domains shown)
# VH: QVQLVESGGGVVQPGRSLRLSCAASEITFITYAMHWVRQAPGKGLEWVALISDDGSNKFYADSVKGRFTISRDNSKNTLYLQMNSLRAEDTAAYYCAREGVYFDSGTYRGYFDYWGQETLVTVSS
# VL: EIVLTQSPATLSLSPGERATLSCRASQSVSSYLAWYQQKPGQAPRLLIYDASNRATGIPARFSGSGSGTDFTLTISSLEPEDFAVYYCQQRSHWPPITFGQGTRLEIK
# B3: TCN-554 (5277_M05) (antibody, V domains shown)
# VH: QVQLVQSGADLKKPGASVKVSCKASGYTFTDYYIHWVRQAPGQGLEWMGWINPESGDTKYAQKFQGRVTMTRDTSITTAYMELGRLRSDDTAVYYCARDVSTTWSWFAPWGQGTLVTVSS
# VL: DIVMTQSPDSLAVSLGERATINCRSSQSIFHNSNNENYLAWYQQKPGQPPKLLIYWASTRESGVPDRFSGSGSGTDFTLTISSLQAEDVAVYFCQQYYNAPLTFGGGTKVEIK
# B4: TCN-531 (5091_H13) (antibody, V domains shown)
# VH: EVQLVESGGDLVQPGRSLKLSCTGSGFTFGDYGVTWVRQAPGKGLEWVGFIRTRPWGGTADTAASVKGRFTISRDDSKSLAYLQMNSLKTEDTAVYYCCRDAPPNVEVASMTNWYFDLWGRGTLVTVSS
# VL: DIQLTQSPSSLSASVGDRVTITCRASQGILNCLAWYQQKPGKVPNLLMYAASTLQSGVPSRFSGSGFGTDFTLTISSLQPEDVATYYCQTYGGVSTFGGGTKVEIR
# B5: TCN-540 (5060_F05) (antibody, V domains shown)
# VH: B1 VH
# VL: B1 VL
# B6: TCN-537 (3194_D21) (antibody, V domains shown)
# VH: QVQLQQWGSGLLKPSETLSLTCAVYGGSFRDDYWTWIRQPPGKGLEWIGEINHSGRTNYNPSLKSRVTISVDTSLKQFSLKVISVTAADTAVYYCARGTSHVSRYFDWLPPTNWFDPWGQGTQVTVSS
# VL: DIVLTQSPGTLSLSPGERATLSCRASQSVSSSYLAWYQQKPGQAPRLVMYGAATRATGIPDRFSGSGSGPDFTLTISRLEPEDFAMYYCQQYGNSPITFGQGTRLEIK
# B7: TCN-538 (3206_O17) (antibody, V domains shown)
# VH: QITLKESGPTLVKPTQTLTLTCVFSGFSLSITGVRVGWIRQPPGKALEWLALISWDDEKHYSPSLQSRLTITKDTSKNQVVLTMTNLDPVDTATYYCARSTDRGHVLRYFGWMLPGDAFDVWGQGTMVTVSS
# VL: DIVMTQSPDFLPVSLGERATINCKSSQRVLYSSNNKNYLAWYQLKPGQPPKLIIYWASTRESGVPDRFSGSGSGTEFTLTISSLQAEDVAVYYCQQYYSRPYTFGQGTKLEIK
# B8: TCN-527 (5086_C06) (antibody, V domains shown)
# VH: QVQLQESGPGLVKPSETLSLNCAVSGGSISNYYWSWIRQPPGKGLEWIGYISYNGRPKYNPSLTSRVTISVDTSKDQFSLELRSVTAADTALYYCARETRFGELLSPYDAFEIWGQGTMVTVSS
# VL: DIQMTQSPSSLSASVGDRVTMTCRASQNIRSYLNWYQQRPGTAPKLLIYAASTLHSGVPSRFSGGGSGTDFTLTINNLQPEDFASYYCQQSYDNPQTFGQGTKVEIK
# B9: TCN-539 (5056_A08) (antibody, V domains shown)
# VH: B2 VH
# VL: B2 VL
# B10: TCN-528 (5087_P17) (antibody, V domains shown)
# VH: QVQLVQSGSEVKKPGASVKVSCKASGYTFTNYDINWIRQAPGQGLEWMGWINPNSGTTGSAQRFQGRVTITVDTSITTVYMELSSLRSDDTAIYYCARGRELLRLQHFLTDSQSERRDCFDPWGQGTLVTVSS
# VL: DIQMTQSPSSLSASVGDRVTITCRANQDIGIYLNWYQQNPGKVPKLLLHGASSLQGGVPSRFSASGSGTDFTLTIHSLQPEDLATYYCQQSRRLPYTFGQGTRVELK
# B11: TCN-532 (5262_H18) (antibody, V domains shown)
# VH: QVQLQESGPGLVKPSETLSLTCTVSGGSVSSETYYWSWIRQPPGKGLEWIGYIYYIGNTDYRPSLKSRVTISLDTSKNQFSLKLSSVTAADTAVYYCARGAYYDSSGYPAFYIWGQGTMVTVSS
# VL: QSVLTQPPSVSGAPGQRVTISCTGSSSNIGSDYDVHWYKQLPGTAPKLLIFGNSNRPSGVPDRFSGSKSGTSASLAITGLQAEDEADYYCQSYDSSLSGFHVFGSGTKVTVL
# B12: TCN-550 (5096_F06) (antibody, V domains shown)
# VH: QVQLQESGPGLVKPSETLSLTCTVSGASINSHYWSWIRQPPGKGLEWIGYVYYSGSTTYNPSLKSRVTLSVDTSKNQFSLNLSSVTAADTAFYYCARHPYDVLTGSGDWFDPWGQGTLVTVSS
# VL: SYVLTQAPSVSVAPGQTARITCGGNAIGSKKVHWYQHKAGQAPVLVVYDDTDRPSGIPERFSGSNSWSTATLTINRVEAGDEADYYCQVWDFTIDHVVFGGGTKLTVL
# B13: TCN-551 (5243_D01) (antibody, V domains shown)
# VH: EVQLVQSGSEVKKPGESLKISCKGSGYSFSNYWIGWVRHMPGKGLEWMGIIYPGDSDTRYSPSFQGQVTMSADKSSSTVYLQWSSLKASDTAIYYCARRGGHSFGYGSGGDTHSEFDSWGQGTLVTVSS
# VL: QSVLTQSPSVSAAPGQKVTISCSGSDSNIGDYFVCWYQHLPGKPPQLLIYENNKRPSGIPDRFSGSKSGTSATLGITGIQTGDEADYYCATWDGSLSAWVFGGGTKLTVL
# B14: TCN-544 (5082_A19) (antibody, V domains shown)
# VH: QVQLQESGPGLVKPSETLSLTCTVSRGSIGHYFWSWIRQPPGKGLEWIGYISYSGSTKYNPSLRSRVTISVDTSKNQFSLNLNSVTATDTALYYCAREDYDILTGAGPGMEVWGQGTTVTVSS
# VL: QSMLTQPPSASGTPGQRVTISCSGSSSNIGSNTVNWFKHLPGTAPKLLIYRNDLRPSGVPDRFSGSKSGTSASLAISGLQSEDEADYYCATWDDSLNGFYVFGTGTKVTVL
# B15: TCN-545 (5082_I15) (antibody, V domains shown)
# VH: QVQLQQWGAGLLKPSETLSLSCAVFGGSFSDYYWTWIRQPPGKGLEWIGEIKHSGRTNYNPSLESRVTISVDTSKNQFSLKLSSVTAADTAIYYCARGTDPDTEGYCRSGSCSAFDFWGQGTLVTVSS
# VL: EIVLTQSPGTLSLSPGERATLSCRASHFVNYRSLAWYQQTPGQVPRLLIYGASTRATGIPDRFSGSGSGTDFTLTISRLEPEDFAVYFCQQYGGSPRYTFGQGTRLEIK
# B16: TCN-543 (5081_G23) (antibody, V domains shown)
# VH: QVHLVQSGAEVRKPGDSVKVSCKTSGYTFSTYPVAWVRQVPGQGLEWMGWISTYNGNTNFAQNFQGRVTLTTDTTTNTAYMEVRSLKFDDTAVYYCARVEGSYRDFWNNQNRFDPWGQGTLVTVSS
# VL: SYVLTQPPSVSVAPGQTARISCGGSNIGGKSVHWYQQKPGQAPVLVVYDDSGRPSGIPERFSGSNSGDTATLTISRVEAGDEADYFCQVWDNFGGVFGTGTKVTVL
# B17: TCN-555 (5246_L16) (antibody, V domains shown)
# VH: QVQLVQSGAEVKRPGSSVKVSCTASGGIFRKNAISWVRQAPGQGLEWMGGIIAVFNTANYAQKFQNRVKITADESGNTAYMELSSLTSDDTAVYYCASHPKYFYGSGSYPDFWGQGTLVTVSS
# VL: QSALTQPRSVSGSPGQSITISCTGGSSDIGASNSVSWYQQHPGKAPKLVIFDVTERPSGVPHRFSGSKSGNTASLTVSGLQPDDEADYFCCAYGGKYLVVFGGGTKVTVL
# B18: TCN-535 (5246_P19) (antibody, V domains shown)
# VH: QVQLVQSGSEVKKPGTSVKVSCTASGSVFTNYGISWVRQAPGQGLEWMGGIIPLFGAAKYAQKFQGRVTITADESTKTVYMELSRLTSKDTAIYFCAKAPRVYEYYFDQWGQGTPVTVSS
# VL: EIVLTQSPGTLSLSPGERATLSCRASQSVSSSQLAWYQQKPGQAPRLIIYGASTRATGIPDRFSGSGSGTDFTLTIGRLEPEDFAVFFCQQYSTSPPTFGQGTKVDFK
# B19: TCN-529 (5297_H01) (antibody, V domains shown)
# VH: QITLRESGPTLVKPTQTLTLTCTFSGFSLSTNGVNVGWIRQPPGKALEWLALIYWDDDKRYSPSLKRRLTITKDTSKNQVVLTLTNMDPVDTATYYCAHRPDFYGDFEYWGPGTLVTVSS
# VL: QSALTQPASVSGSPGQSITISCTGSSSDIGGYNYVSWYQQHPGKAPKLMIYDVNNRPSGVSNRFSGSKSGNTASLTISGLQTDDEADYYCGSYTGSPHYVFGTGTKVTVL
# Target: Hemagglutinin (HA) of influenza A virus A/Solomon Islands/3/06 H1N1, on whole virions (Influenza A virus A/Solomon …)
# Experiment: not given
row,Binder,ELISA virus binding (OD450)
1,B1,0.09
2,B2,0.07

# Target: Hemagglutinin (HA) of influenza A virus A/Japan/305/57 H2N2, on whole virions (Influenza A virus A/Japan/305/1957 …)
# Experiment: not given
row,Binder,ELISA virus binding (OD450)
1,B1,3.61
2,B2,0.07

# Target: hemagglutinin on whole influenza A virions, A/Solomon Islands/3/06 H1N1 (Influenza A virus A/Solomon …)
# Experiment: not given
row,Binder,ELISA: Virus Binding (OD450)
1,B3,0.86
2,B4,0.08
3,B5,0.07
4,B6,3.63
5,B7,3.64
6,B8,3.63
7,B9,0.07
8,B10,3.63
9,B11,0.07
10,B12,0.06
11,B13,3.63
12,B14,0.08
13,B15,3.43
14,B16,3.64
15,B17,3.63
16,B18,3.63
17,B19,0.07

# Target: hemagglutinin on whole influenza A virions, A/Wisconsin/67/05 H3N2 (Influenza A virus …)
# Experiment: not given
row,Binder,ELISA: Virus Binding (OD450)
1,B3,3.57
2,B4,3.61
3,B5,3.64
4,B6,0.09
5,B7,0.11
6,B8,0.22
7,B9,0.13
8,B10,0.46
9,B11,2.36
10,B12,3.63
11,B13,0.26
12,B14,3.6
13,B15,3.64
14,B16,3.63
15,B17,0.11
16,B18,0.12
17,B19,3.6

# Target: T1, Hemagglutinin (HA) of influenza A virus A/Wisconsin/67/05 H3N2, on whole virions (Influenza A virus A/Wisconsin/67/2005 …)
# T1 construct: whole, on cells
# Experiment: ELISA on coated inactivated whole virions; transfection supernatant, set 5
row,Binder,ELISA virus binding (OD450)
1,B2,0.13
